# Source: paper PMC5056392, “CD4-mimetic sulfopeptide conjugates display sub-nanomolar anti-HIV-1 activity and protect macaques against a SHIV162P3 vaginal challenge” (Scientific Reports, 2016)
# Like-named read-outs stand apart in the source and are kept apart here.
# How the values were obtained:
# TZM-bl cells = experiment: WST-1 cytotoxicity assay; type: cell-based; conditions: Table 2, 50% cytotoxic concentration, WST-1, 48 h
# Protocol: The water soluble tetrazolium-1 (WST-1) cell proliferation assay is based on the cleavage of the tetrazolium salt WST-1 to a formazan dye by a complex cellular mechanism. Because this bioreduction is dependent on the glycolytic production of NAD(P)H in viable cells, the amount of formazan dye formed is correlates directly to the number of viable cells in a culture. Quantification is done by measuring absorbance at 450 nm in a multiwell plate reader. TZMbl cells (10^4 cells/well) were plated in a 96-well plate and a serial dilution of compound was added. 48 h later, cell proliferation reagent was added and cell viability was measured compared to untreated control cultures. Cell viability was plotted against the compound concentration and non-linear regression analysis was performed to calculate the 50% cytotoxic concentration (CC50).
# SHIV162P3 = type: cell-based, SHIV; conditions: Table 2; B-R5; 10^-3 MOI, TZM-bl cells, 48 h; mean of at least 2 independent experiments, triplicates
# Protocol: (§1) The IC50 of the various mCD4-conjugates were measured in TZM-bl cells (NIH AIDS Reagent Program, Germantown, MD 20874, US). This cell line expresses high densities of CD4, CCR5 and CXCR4. It contains a luciferase reporter gene under control of HIV LTR, which will be transcribed and translated into luciferase protein, if the cells get infected with HIV and start producing Tat. Briefly, 50 μl of TZM-bl cells (1 × 10^5 cells/mL) supplemented with 30 μg/mL DEAE dextran were incubated with a 50 μl of a 10-fold serial dilution of the compounds under investigation in 96-well flat bottom plates, prior to inoculation with 50 μl of various viruses (see Tables & and 2; 50, 100 or 200 TCID50 was used depending on the virus). As a positive control, 50 μl of compound-free medium was used and as a negative control, 100 μl of medium was added to 100 μl of TZM-bl cells. All conditions were done in triplicates. The plates were incubated for 48 hours (37 °C, 5% CO2). Subsequently, 120 μL of supernatants were removed, 75 μl of the luciferase substrate Steadylite (Perkin Elmer, Life Sciences, Zaventem, Belgium) were added to the wells and the plates were incubated at room temperature on an orbital shaker for 10 minutes. Next, the luciferase activity was measured using a TriStar LB941 luminometer (Berthold Technologies GmbH & Co. KG., Bad Wildbad, Germany) and expressed in relative light units (RLU) as a percentage of positive control wells. IC50 were calculated in GraphPad Prism 5.03 using non-linear regression (GraphPad Software, San Diego, CA, USA).
# HIV-1 NL4.3 = type: cell-based; conditions: primary CD4 T cells infected with NL4.3, co-culture with autologous target cells, Gag+ targets by flow cytometry
# Protocol: (§2) Primary CD4^+ T cells were purified from human peripheral blood by positive selection (Miltenyi). About 98% of cells were CD4^+CD3^+. For activation, primary T cells were treated with PHA (1 μg/ml) for 24 h and then cultured with IL-2 (50 IU/ml) for 3–5 days before use. Primary cells were infected with HIV-1 NL4-3 and NLAD8 as described. Donor cells were used a few days later, when about 20% of the cells were Gag^+. Target cells were labeled with FarRed (2.5 μM; Molecular Probes). Donors were preincubated 1 h with the indicated doses of compounds. Donor and target cells were then mixed at a 1:2 ratio in 96-well plates at a final a concentration of 1.5 × 10^6/ml in 200 μl, in duplicates. After 48 or 72 h, cells were stained for intracellular Gag (KC57 mAb, Coulter) and analyzed by flow cytometry. When used, mCD4 or mCD4-conjugates were added 1 h before coculture. Measurement of the levels of Env epitopes at the surface of infected cells with 3BNC117 was performed by flow cytometry as previously described.
# HIV-1 MN = type: cell-based; conditions: Table 2; B-X4; 10^-3 MOI, TZM-bl cells, 48 h; mean of at least 2 independent experiments, triplicates
# Protocol: as §1
# HIV-1 pZM247Fv2 = type: cell-based; conditions: Table 2; T/F C-R5; 10^-3 MOI, TZM-bl cells, 48 h; mean of at least 2 independent experiments, triplicates
# Protocol: as §1
# HIV-1 p246F10 = type: cell-based; conditions: Table 2; T/F C-R5; 10^-3 MOI, TZM-bl cells, 48 h; mean of at least 2 independent experiments, triplicates
# Protocol: as §1
# HIV-1 Ca10-3 (CRF01) = type: cell-based; conditions: Table 2; AE-X4; 10^-3 MOI, TZM-bl cells, 48 h; mean of at least 2 independent experiments, triplicates
# Protocol: as §1
# HIV-1 VI824 = type: cell-based; conditions: Table 2; D-R5; 10^-3 MOI, TZM-bl cells, 48 h; mean of at least 2 independent experiments, triplicates
# Protocol: as §1
# HIV-1 IIIB = type: cell-based
# Protocol: as §1
# HIV-1 VI1888 (CRF01) = type: cell-based; conditions: Table 2; AE-R5; 10^-3 MOI, TZM-bl cells, 48 h; mean of at least 2 independent experiments, triplicates
# Protocol: as §1
# HIV-1 MP568 (CRF02) = type: cell-based; conditions: Table 2; AG-R5; 10^-3 MOI, TZM-bl cells, 48 h; mean of at least 2 independent experiments, triplicates
# Protocol: as §1
# HIV-1 SF162 = type: cell-based; conditions: Table 2; B-R5; 10^-3 MOI, TZM-bl cells, 48 h; mean of at least 2 independent experiments, triplicates
# Protocol: as §1
# HIV-1 pTHRO.c/2626 = type: cell-based; conditions: Table 2; T/F B-R5; 10^-3 MOI, TZM-bl cells, 48 h; mean of at least 2 independent experiments, triplicates
# Protocol: as §1
# HIV-1 Bal = type: cell-based
# Protocol: as §1
# HIV-1 VI829 = type: cell-based; conditions: Table 2; C-R5; 10^-3 MOI, TZM-bl cells, 48 h; mean of at least 2 independent experiments, triplicates
# Protocol: as §1
# HIV-1 pWITO.c/2474 = type: cell-based; conditions: Table 2; T/F B-R5; 10^-3 MOI, TZM-bl cells, 48 h; mean of at least 2 independent experiments, triplicates
# Protocol: as §1
# HIV-1 VI820 = type: cell-based; conditions: Table 2; A-X4R5; 10^-3 MOI, TZM-bl cells, 48 h; mean of at least 2 independent experiments, triplicates
# Protocol: as §1
# HIV-1 pREJO.c/2864 cl2 = type: cell-based; conditions: Table 2; T/F B-R5; 10^-3 MOI, TZM-bl cells, 48 h; mean of at least 2 independent experiments, triplicates
# Protocol: as §1
# [1] = system: HIV-1 Env CD4 binding site; experiment: HIV-1 Env surface levels (3BNC117 staining of infected cells); type: cell-based; conditions: CEM-NKR cells infected with HIV-1 NL4.3, 1 μM, 10 min at 37 °C, flow cytometry
# Protocol: as §2
# [2] = mCD4.2-PS1 (K5 coupling) versus M48U1-PS1 (K11 coupling)
compound,measurement,setting,value
CC(C)C[C@@H]1NC(=O)CNC(=O)[C@H](CC(C)C)NC(=O)[C@H](CO)NC(=O)[C@H](CO)NC(=O)[C@@H]2CSSC[C@@H](C(=O)N[C@H](C(N)=O)C(C)C)NC(=O)[C@H](C)NC(=O)[C@@H]3CSSC[C@H](NC(=O)[C@H](CCCCNC(=O)CCOCCOCCNC(=O)CCN4C(=O)CC(SCCC(=O)NCCCC(=O)N[C@@H](CO)C(=O)N[C@@H](Cc5ccc(OS(=O)(=O)O)cc5)C(=O)N[C@@H](CC(=O)O)C(=O)N[C@@H](Cc5ccc(OS(=O)(=O)O)cc5)C(=O)N[C@@H](CO)C(=O)N[C@@H](Cc5ccc(OS(=O)(=O)O)cc5)C(=O)N[C@@H](CC(=O)O)C(=O)N[C@@H](Cc5ccc(OS(=O)(=O)O)cc5)C(=O)N[C@@H](CO)C(=O)N[C@@H](Cc5ccc(OS(=O)(=O)O)cc5)C(=O)N[C@@H](CC(=O)O)C(=O)N[C@@H](Cc5ccc(OS(=O)(=O)O)cc5)C(=O)N[C@@H](CO)C(=O)O)C4=O)NC(=O)[C@H](Cc4c[nH]cn4)NC(=O)[C@H](CC(C)C)NC(=O)[C@H](CC(N)=O)NC(=O)CCSSC[C@H](NC(=O)[C@H](CCCNC(=N)N)NC(=O)CNC(=O)[C@H](CC(C)C)NC1=O)C(=O)N[C@@H](C)C(=O)N1CCC[C@@H]1C(=O)N[C@@H]([C@@H](C)O)C(=O)N[C@@H](Cc1ccc(OCC4CCCCC4)cc1)C(=O)N3)C(=O)N[C@@H](CCC(N)=O)C(=O)N[C@@H](CC(C)C)C(=O)N[C@@H](CCCNC(=N)N)C(=O)N2 (stereo partly shown) [mCD4.2-PS1],CC50,TZM-bl cells,>50000 nM
same,IC50,SHIV162P3,2.2 nM
same,IC50,"HIV-1 NL4.3; 48 h, read-out: IC50 (nM) 48h, cell-cell transmission",0.1 nM
same,IC50,"HIV-1 NL4.3; 72 h, read-out: IC50 (nM) 72h, cell-cell transmission",0.2 nM
same,IC50,HIV-1 MN,0.046 nM
same,IC50,HIV-1 pZM247Fv2,206 nM
same,IC50,HIV-1 p246F10,58 nM
same,IC50,HIV-1 Ca10-3 (CRF01),0.12 nM
same,IC50,HIV-1 VI824,0.68 nM
same,IC50,"HIV-1 IIIB; Table 2, B-X4, 10^-3 MOI, TZM-bl cells, 48 h, mean of at least 2 independent experiments, triplicates",0.0073 nM
same,"activity fold increase, IIIB",HIV-1 IIIB; [2],2.8
same,IC50,HIV-1 VI1888 (CRF01),1060 nM
same,IC50,HIV-1 MP568 (CRF02),4.9 nM
same,IC50,HIV-1 SF162,0.01 nM
same,IC50,HIV-1 pTHRO.c/2626,8.9 nM
same,IC50,"HIV-1 Bal; Table 2, B-R5, 10^-3 MOI, TZM-bl cells, 48 h, mean of at least 2 independent experiments, triplicates",0.035 nM
same,"activity fold increase, Bal",HIV-1 Bal; [2],3.8
same,IC50,HIV-1 VI829,4 nM
same,IC50,HIV-1 pWITO.c/2474,1.3 nM
same,IC50,HIV-1 VI820,0.031 nM
same,IC50,HIV-1 pREJO.c/2864 cl2,0.28 nM
same,binding of 3BNC117 bNAb to cell-surface Env,[1],strongly inhibited
